# The other results are listed elsewhere or left out. No cut-off for these calls is given here. Only a part of the results of these assays is listed, not drawn at random.
# Biological target: T1, Phosphoglycerate kinase, glycosomal (Trypanosoma brucei brucei) (UniProt P07378)
# T1 sequence (whole entry): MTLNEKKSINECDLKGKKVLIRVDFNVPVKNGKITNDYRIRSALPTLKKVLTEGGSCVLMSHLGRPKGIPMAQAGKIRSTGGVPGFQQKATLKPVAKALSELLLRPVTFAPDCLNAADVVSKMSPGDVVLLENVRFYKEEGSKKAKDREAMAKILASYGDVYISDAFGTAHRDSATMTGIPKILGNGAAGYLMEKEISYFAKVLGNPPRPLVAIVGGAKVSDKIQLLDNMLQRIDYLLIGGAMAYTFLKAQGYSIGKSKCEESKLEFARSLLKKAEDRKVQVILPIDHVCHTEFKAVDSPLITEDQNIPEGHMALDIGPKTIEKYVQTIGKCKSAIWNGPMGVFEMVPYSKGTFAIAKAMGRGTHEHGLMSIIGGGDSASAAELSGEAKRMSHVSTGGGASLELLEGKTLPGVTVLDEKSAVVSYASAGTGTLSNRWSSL
# Assay: qHTS for inhibitors of Phosphogylcerate Kinase: Hit Validation Screen.
# Assay type: functional
smiles,measurement,value
O=C1C(O)=C([N+](=O)[O-])C(=O)C(O)=C1[N+](=O)[O-],Potency,active: 5.8 µM

# Reference: ChEMBL document CHEMBL1201862, “PubChem BioAssay data set” (2004)
